Laboratory results as given in ChEMBL document CHEMBL1157539, “Thousands of chemical starting points for antimalarial lead identification” (Nature, 2010).

Test system: Plasmodium falciparum
Assay: GSK_TCMDC: Inhibition of Plasmodium falciparum 3D7 in whole erythrocytes, using parasite LDH activity as an index of growth.
Assay type: functional, organism-based

COc1cc(C(=O)NC(SC2=NCCS2)C(Cl)(Cl)Cl)cc(OC)c1OC (stereo unspecified)
XC50: 984 nM
